Test results reported in patent US20220193124A1, “Therapeutic Agent for Flavivirus Infection” (NEOPHARMA JAPAN CO., LTD., priority 2019, published 2022).

Tested on: cells infected with the dengue virus type-2 New Guinea C strain (DENV2 NGC)
Assay: Cell toxicity in dengue virus infected cells, optical microscope observation
Conditions: 0.2 mM; treated for 2 days; FIG. 18

With `Cl.NCC(=O)CCC(=O)O` [5-ALA, 5-aminolevulinic acid hydrochloride] the “cell toxicity (detachment of cells)” value was “did not show detachment”.
